{"source": "paper PMC7081899", "about": "“Autologous Antibody Responses to an HIV Envelope Glycan Hole Are Not Easily Broadened in Rabbits” (Journal of Virology, 2020)", "binders": {"B1": {"name": "13B Fab (Fab, V domains shown)", "VH": "LEESGGGLVQPEGSLTLTCKASGFDFSDYHVQWVRQSPGKGLEFIGGIAYTGNIYYASWAKGRFTISKTSSTTVTLQMTTLTAADTATYFCARAYGYASAPYAQYFNLWGPGTLVTVSS", "VL": "DIVMTQTPASVSEPVGGTVTINCQASQSRGNNYLSWYQQKPGQSPSLLIYRTSTLASGVPSRFKGSGSGTQFTLTISDLECADAATYYCLYGYYSSRNPDFAFGGGTEVVVK", "notes": "also called nAb 13B; 13B antibody"}}, "target": "T1, HIV-1 envelope glycoprotein (HIV-1 subtype B, B41, stabilised)", "T1 construct": "source: HEK 293F, purified (2G12 IgG Sepharose column, Superdex 200); copies: 3 + 3", "assay": "negative-stain EM", "settings": "both partners purified", "data": [{"binder": "B1", "values": [{"measurement": "stoichiometry N", "result": 3, "unit": "antibodies per trimer"}]}]}
